Measured values published in patent US20260077055A1, “COMPOSITIONS OF POLYPLEXES AND SAPONINS” (SAPREME TECHNOLOGIES B.V., priority 2022, published 2026).

System: EGFR+ A431 cells
Assay: Cell viability (MTS) after polyplex transfection of A431 cells
Type: cell-based
Settings: K16C npSaporin polyplex with targeted saponin
Procedure: Spectrophotometry: Concentrations were determined using either a Thermo Nanodrop 2000 spectrometer or Perkin Elmer Lambda 365 Spectrophotometer. DLS measurements: DLS measurements were performed on a Malvern Nano ZS (Malvern Instruments, U.K.), operating at 633 nm with a 173° scattering angle, at 25 or 37° C. DLS mean diameters were obtained from the intensity particle size distribution provided by Malvern Zetasizer Software. DLS histograms were obtained from the intensity particle size distributions. Zeta-potential: The zeta-potential values of the polyplexes were obtained by laser doppler anemometry (LDA), measuring the mean electrophoretic mobility (Malvern Zetasizer Nano ZS, Malvern Instruments, U.K.). Measurements were performed in 10 mM HEPES pH 7.1, 150 mM NaCl. TEM measurements: TEM measurements were performed on a JEOL JEM-1011 operated at 100 kV electron microscope, equipped with a camera S5 MegaView G2. […] Infrared Spectroscopy: FT-IR spectra were recorded on a Bruker Vertex 70v, equipped with a RockSolid interferometer, after preparing the samples (1-2 mg) as KBr pellets. […] NMR Spectroscopy: 1H NMR spectra were recorded on a 11.7 T Bruker DRX-500 spectrometer. […] Experiments were recorded acquiring 64-512 scans, with a pre-scan delay (d1) of 12 s, and an acquisition time (aq) of 4 s at 300 K. 13C NMR spectrum was recorder on a 9.39 T Varian Innova 400 spectrometer. […]

Cetuximab-SO1861: Cetuximab conjugated via cysteines with SO1861-EMCH, 4 SO1861 moieties per antibody (DAR4)
amount of saporin nanoplasmid necessary per treatment: greatly reduced
